According to patent publication US20260042827A1, “ANTI-WT1 ANTIGEN-BINDING PROTEINS AND USES THEREOF” (UNIVERSITY HEALTH NETWORK, priority 2022, published 2026):

Biological target: HLA-DP4 (human), P20036
Assay: competition peptide binding on T2/DP4 cells vs Oxy271-287
Settings: chains peptide; modification not given

Binder: FNNFTVSFWLRVPKVSASHLE [tetanus toxin947-967 (TT947-967)]
- IC50: 4.4 µM
